Compound potency records, mixed from different reports. Data source: NIAID ChemDB in PubChem.

Shared fields: growth or infection tests; organism: Candida albicans

Rows are shuffled and stem from different studies. An empty or dashed field is not shown. MIC50, MIC90 and the like: level of inhibition, or share of isolates inhibited.

SMILES	read by	endpoint	strain	value
CC[N+](C)(CC)CCCC(C)CCCC(C)CCCCC(C)CCCC(C)CCC[N+](C)(CC)CC	-	MIC	S9	50 µg/mL
NNC(=S)Nn1c(-c2ccccc2)nc2ccccc2c1=O	-	MIC	ATCC 753	100 µg/mL
c1ccc(-c2ccc(C(c3cccc4ccccc34)n3ccnc3)cc2)cc1	-	MIC50	23 strains	8 µg/mL
CC(=O)C[C@@H]1C[C@H]2[C@H]([C@@H]3c4[nH]c5ccccc5c4CCN13)[C@H](O)C13CC/C=C\CCCCN1CC21CC/C=C\CCCNC13	-	MIC	-	>20 µg/mL
CC[C@H](NC(=O)C[C@@H](NC(=O)C[C@H](CCCN=C(N)N)NC(=O)N[C@H](CC)NC(=O)C[C@@H](NC(=O)C[C@H](CCCN=C(N)N)NC(=O)N[C@H](CC)NC(=O)C[C@@H](NC(=O)C[C@@H](N)Cc1ccc(O)cc1)C(C)C)C(C)C)C(C)C)NC(=O)N[C@@H](CCCN=C(N)N)CC(N)=O	XTT / broth dilution	MIC	SC5314	128 µg/mL
C[C@@H](c1nc(-c2ccc(C#N)cc2)cs1)[C@](O)(Cn1cncn1)c1ccc(F)cc1F	-	MIC	E81022	≤0.006 µg/mL
Cn1cc(-c2ccccc2)c(C(c2ccc(-c3ccccc3)cc2)n2ccnc2)c1	-	Mean MIC	33 strains	190.1 µg/mL
Cn1c(SCC(=O)c2ccc(Cl)cc2)nc2c(sc(=S)n2-c2ccccc2)c1=O	-	MIC	ATCC 90018	>512 µg/mL
CC[N+](C)(CC)CCCC(C)=CCC/C(C)=C/CCC=C(C)CC/C=C(\C)CCC[N+](C)(CC)CC	-	MIC	S9	25 µg/mL
CC[C@H]1O[C@]2(CC[C@@H]1C)CC1C[C@@H](C/C=C(\C)C[C@@H](C)/C=C/C=C3\CO[C@@H]4/C(=N\O)C(C)=C[C@@H](C(=O)O1)[C@]34O)O2	broth dilution / agar diffusion	MIC	SC5314	25.6 µg/mL
Clc1ccc(C(c2cccc3ccccc23)n2ccnc2)s1	-	Mean MIC	23 strains	3 µg/mL
C/C=C(\CO)C1CC2c3[nH]c4ccccc4c3CCN2C=C1C(=O)OC	agar diffusion	MIC	-	95 µg/mL
COc1cc(O)c2c(c1)C(=O)c1c(cc3c(c1O)-c1c(cc(C)c(C(=O)NC(C)C(=O)O)c1O)[C@H](OC1OC(C)C(N(C)C)C(OC4OCC(O)C(O)C4O)C1O)[C@H]3O)C2=O	-	MIC	A9540	12.5 µg/mL
Clc1ccc(C(c2cccc3ccccc23)n2ccnc2)cc1	-	MIC90	23 strains	8 µg/mL
Cn1cc(-c2ccccc2)c(C(c2ccsc2)n2ccnc2)c1	-	Mean MIC	33 strains	>256 µg/mL
O=c1c2sc(=S)n(-c3ccccc3)c2[nH]c(=S)n1-c1ccccc1	-	MIC	ATCC 90018	6 µg/mL
CC(C)C1=CC2CC3(C=O)[C@@H]4CC[C@@H](C)[C@H]4CC2(CO[C@@H]2O[C@H](C)CN(CC4CC4)C[C@@H]2O)[C@]13C(=O)O	-	MIC	-	16 µg/mL
c1ccc(-c2c[nH]cc2C(c2ccc3ccccc3c2)n2ccnc2)cc1	-	MIC50	33 strains	16 µg/mL
O=C(Cc1ccccc1)NNC(=S)Nn1c(-c2ccccc2)nc2ccccc2c1=O	-	MIC	ATCC 753	100 µg/mL
CCN(CC)CCCC(C)=CCC/C(C)=C/CCC=C(C)CC/C=C(\C)CCCN(CC)CC	-	MIC	S9	50 µg/mL
COc1ccc(C(c2ccc3ccccc3c2)n2ccnc2)cc1	-	MIC90	23 strains	64 µg/mL
Cn1cc(-c2ccccc2)c(C(c2ccc3ccccc3c2)n2ccnc2)c1	-	MIC50	33 strains	64 µg/mL
CCC(C)CC(C)CCCCCCCCC(=O)N[C@H]1C[C@@H](O)[C@H](NCCN)NC(=O)[C@@H]2[C@@H](O)CCN2C(=O)[C@H]([C@H](O)CCN)NC(=O)[C@H]([C@H](O)[C@@H](O)c2ccc(O)cc2)NC(=O)[C@@H]2C[C@@H](O)CN2C(=O)[C@H]([C@@H](C)O)NC1=O	-	MIC50	2453 strains	0.12 µg/mL
c1ccc(C(c2ccc3ccccc3c2)n2ccnc2)cc1	-	MIC90	23 strains	16 µg/mL
CC1=C[C@@]2(C)C(=O)OC3C[C@@H](C/C=C(\C)C[C@@H](C)/C=C/C=C4\CO[C@H](C1O)[C@@]42O)O[C@@]1(CC[C@H](C)[C@@H](C)O1)C3	broth dilution / agar diffusion	MIC	SC5314	6.4 µg/mL
C[C@@H](NC(=O)N[C@@H](CCCCN)CC(N)=O)NC(=O)[C@H]1CCCC[C@@H]1NC(=O)C[C@H](CCCCN)NC(=O)N[C@H](C)NC(=O)[C@H]1CCCC[C@@H]1NC(=O)C[C@H](CCCCN)NC(=O)N[C@H](C)NC(=O)[C@H]1CCCC[C@@H]1NC(=O)C[C@@H](N)Cc1ccc(O)cc1	XTT / broth dilution	MIC	SC5314	128 µg/mL
CC(C)N=C(N)c1ccc2nc(-c3ccc4c(c3)Cc3cc(-c5nc6ccc(C(N)=NC(C)C)cc6[nH]5)ccc3-4)[nH]c2c1	-	MIC	A39	0.78 µg/mL
Cn1c(SCC(=O)c2ccc(Br)cc2)nc2c(sc(=S)n2-c2ccccc2)c1=O	-	MIC	ATCC 90018	64 µg/mL
CC[N+]([O-])(CC)CCCC(C)=CCC/C(C)=C/CCC=C(C)CC/C=C(\C)CCC[N+]([O-])(CC)CC	-	MIC	S9	100 µg/mL
CCn1c(=S)[nH]c2c(sc(=S)n2-c2ccccc2)c1=O	-	MIC	ATCC 90018	32 µg/mL
CC(C)[C@@H](NC(=O)N[C@@H](CCCCN)CC(N)=O)NC(=O)[C@H]1CCCC[C@@H]1NC(=O)C[C@H](CCCCN)NC(=O)N[C@@H](NC(=O)[C@H]1CCCC[C@@H]1NC(=O)C[C@H](CCCCN)NC(=O)N[C@@H](NC(=O)[C@H]1CCCC[C@@H]1NC(=O)C[C@@H](N)Cc1ccc(O)cc1)C(C)C)C(C)C	XTT / broth dilution	MIC	SC5314	8 µg/mL
c1csc(C(c2cccc3ccccc23)n2ccnc2)c1	-	MIC50	23 strains	8 µg/mL
Cn1cc(-c2ccccc2)c(C(c2cccc3ccccc23)n2ccnc2)c1	-	MIC90	33 strains	32 µg/mL
CCn1c(SCC(=O)c2ccccc2)nc2c(sc(=S)n2-c2ccccc2)c1=O	-	MIC	ATCC 90018	64 µg/mL
CC(C)CCCC(C)CCCC(C)CCCCC(C)CCCC(C)CCCN(C)C	-	MIC	S124	>200 µg/mL

The last 3 rows once more:

SMILES	read by	endpoint	strain	value
Cn1cc(-c2ccccc2)c(C(c2cccc3ccccc23)n2ccnc2)c1	-	MIC90	33 strains	32 µg/mL
CCn1c(SCC(=O)c2ccccc2)nc2c(sc(=S)n2-c2ccccc2)c1=O	-	MIC	ATCC 90018	64 µg/mL
CC(C)CCCC(C)CCCC(C)CCCCC(C)CCCC(C)CCCN(C)C	-	MIC	S124	>200 µg/mL